Pooled drug test results. Numbers come from NIAID ChemDB, via PubChem.

Shared fields: growth or infection tests; agent: HIV-1

Rows are shuffled and stem from different studies. ECn: concentration that inhibits the pathogen or its effect by n%. Fold resistance: result on the changed form divided by that on wild type. Blank or dashed fields: not listed here.

structure	changes	cells	strain or isolate	measure	method	value
COc1ccnc2[nH]cc(C(=O)C(=O)N3CCN(C(=O)c4ccccc4)C[C@H]3C)c12	-	TZM-bl	PVO	EC99	luciferase	0.42 µM
Cc1cc(C#N)cc(C(=O)c2cc(Cl)ccc2OCC(=O)Nc2ccc(OCCCN3CC=CC3)cc2C)c1	RT-V106A Y181C	HeLa + HELA CD4+	HXB2	fold resistance	β-galactosidase	~1
CC(C)C1=C2[C@H]3CC[C@@H]4[C@@]5(C)CC[C@H](OC(=O)[C@H]6C[C@@H](C(=O)O)C6(C)C)C(C)(C)[C@@H]5CC[C@@]4(C)[C@]3(C)CC[C@@]2(CCNCc2ccc(N3CCS(=O)(=O)CC3)nc2)CC1=O	-	MT-2	92HT599	EC50	p24 / ELISA	<1 µM
Cc1cc(S(N)(=O)=O)ccc1NC(=O)COc1ccc(Cl)cc1C(=O)c1cc(F)cc(C(F)(F)F)c1	RT-G190E	HeLa + HELA CD4+	HXB2	fold resistance	β-galactosidase	~1
CC(C)C1=C2[C@H]3CC[C@@H]4[C@@]5(C)CC[C@H](OC(=O)[C@H]6C[C@@H](C(=O)O)C6(C)C)C(C)(C)[C@@H]5CC[C@@]4(C)[C@]3(C)CC[C@@]2([C@@H](O)CNCC(C)(C)NC(=O)c2ccc(N3CCS(=O)(=O)CC3)cc2)CC1=O	-	MT-2	92HT599	EC50	p24 / ELISA	<1 µM
Cc1cc(Cl)cc(C(=O)c2cc(Cl)ccc2OCC(=O)Nc2ccc(S(N)(=O)=O)cc2C)c1	RT-Y181C	MT-4	Nevirapine-resistant (RT Y181C)	fold resistance	cytopathic effect / propidium iodide	~0.1
CC(C)C1=C2[C@H]3CC[C@@H]4[C@@]5(C)CC[C@H](OC(=O)[C@H]6C[C@@H](C(=O)O)C6(C)C)C(C)(C)[C@@H]5CC[C@@]4(C)[C@]3(C)CC[C@@]2(CCNC(=O)c2ccc(Cl)c(Cl)c2)CC1=O	-	MT-2	92HT599	EC50	p24 / ELISA	<1 µM
COc1ccc(S(=O)(=O)N(Cc2ccccc2)CC(F)(F)C(=O)[C@@H](Cc2ccccc2)NC(=O)OCc2ccccc2)cc1	-	CEM	IIIB	EC90	p24	1 µM
Cc1cc(S(N)(=O)=O)ccc1NC(=O)COc1ccc(Cl)cc1C(=O)c1cc(F)cc(C#N)c1	RT-K103N P225H	HeLa + HELA CD4+	HXB2	fold resistance	β-galactosidase	~1
CC(C)C1=C2[C@H]3CC[C@@H]4[C@@]5(C)CC[C@H](OC(=O)[C@H]6C[C@@H](C(=O)O)C6(C)C)C(C)(C)[C@@H]5CC[C@@]4(C)[C@]3(C)CC[C@@]2([C@@H](O)CNC(=O)c2ccc(CN3CCC(O)CC3)cc2)CC1=O	-	MT-2	92HT599	EC50	p24 / ELISA	<1 µM
O=C1Nc2ccc(Cl)cc2[C@@](C#CC2CC2)(C(F)(F)F)N1	RT-V106A	-	-	EC90	-	<0.012 µM
CC(C)CN(CC(O)CCN1CCCC[C@H]1C(=O)NC(C)(C)C)S(=O)(=O)c1ccccc1	-	CEM	IIIB	EC90	p24	1 µM
CC(C)C1=C2[C@H]3CC[C@@H]4[C@@]5(C)CC[C@H](OC(=O)[C@H]6C[C@@H](C(=O)O)C6(C)C)C(C)(C)[C@@H]5CC[C@@]4(C)[C@]3(C)CC[C@@]2(CC(=O)NCc2ccc(CN3CCS(=O)(=O)CC3)cc2)CC1=O	-	MT-2	92HT599	EC50	p24 / ELISA	<1 µM
COc1ccnc2[nH]cc(C(=O)C(=O)N3C4CCC3CN(C(=O)c3ccccc3)C4)c12	-	TZM-bl	6535	EC99	luciferase	4 µM
CC(C)C1=C2[C@H]3CC[C@@H]4[C@@]5(C)CC[C@H](OC(=O)[C@H]6C[C@@H](C(=O)O)C6(C)C)C(C)(C)[C@@H]5CC[C@@]4(C)[C@]3(C)CC[C@@]2(CCNCC(C)(C)NC(=O)c2ccc(Cl)cc2OCCN2CCS(=O)(=O)CC2)CC1=O	-	MT-2	92HT599	EC50	p24 / ELISA	<1 µM
Cc1cc(S(N)(=O)=O)ccc1NC(=O)COc1ccc(Cl)cc1C(=O)c1cccc(C#N)c1	RT-P225H	HeLa + HELA CD4+	HXB2	fold resistance	β-galactosidase	~1
CC(C)C1=C2[C@H]3CC[C@@H]4[C@@]5(C)CC[C@H](OC(=O)[C@H]6C[C@@H](C(=O)O)C6(C)C)C(C)(C)[C@@H]5CC[C@@]4(C)[C@]3(C)CC[C@@]2(CC(=O)NCC(C)(C)NC(=O)c2ccc(N)nc2)CC1=O	-	MT-2	92HT599	EC50	p24 / ELISA	<1 µM
O=C1Nc2ccc(Cl)cc2[C@@](/C=C/C2CC2)(C(F)(F)F)N1	RT-K101E	-	-	fold resistance	-	<6
Cc1cc(C#N)cc(C(=O)c2cc(Cl)ccc2OCC(=O)Nc2cnc(S(N)(=O)=O)cc2C)c1	RT-K103N Y181C	HeLa + HELA CD4+	HXB2 (RT-K103N Y181C) Recombinant	fold resistance	β-galactosidase	~1
CC(C)C1=C2[C@H]3CC[C@@H]4[C@@]5(C)CC[C@H](OC(=O)[C@H]6C[C@@H](C(=O)O)C6(C)C)C(C)(C)[C@@H]5CC[C@@]4(C)[C@]3(C)CC[C@@]2(CCNCC(F)(CCN)NC(=O)c2ccc(Cl)cc2)CC1=O	-	MT-2	92HT599	EC50	p24 / ELISA	<1 µM
Cc1cc(C)cc(C(=O)c2cc(Cl)ccc2OCC(=O)Nc2ccc(S(N)(=O)=O)cc2C)c1	RT-V106I Y181C	HeLa + HELA CD4+	HXB2	fold resistance	β-galactosidase	~1
O=C(O)c1cc(-n2cccc2)ccc1Cl	-	PBMC + MT-2	94UG103 X4R5 CLADE A	EC90	p24	78.15 µM
O=C(O[C@H]1CCOC1)N(Cc1ccccc1)CC(O)CN(CC1CCCC1)S(=O)(=O)c1ccccc1	-	CEM	IIIB	EC90	p24	1 µM
Cc1cc(C#N)cc(C(=O)c2cc(Cl)ccc2OCC(=O)Nc2ccc(S(N)(=O)=O)nc2C)c1	RT-K103N	HeLa + HELA CD4+	HXB2	EC50	β-galactosidase	<0.01 µM

Again, the opening 2 rows:

structure,changes,cells,strain or isolate,measure,method,value
COc1ccnc2[nH]cc(C(=O)C(=O)N3CCN(C(=O)c4ccccc4)C[C@H]3C)c12,-,TZM-bl,PVO,EC99,luciferase,0.42 µM
Cc1cc(C#N)cc(C(=O)c2cc(Cl)ccc2OCC(=O)Nc2ccc(OCCCN3CC=CC3)cc2C)c1,RT-V106A Y181C,HeLa + HELA CD4+,HXB2,fold resistance,β-galactosidase,~1